Earlier results in patent US9468209B2, “Method for eradicating weeds with derivatives of 3-acetyl-5-sec-butyl-4-hydroxy-3-pyrrolin-2-one” (priority 2012, dated 2016).

Chains of the proteins cited; added tags and fusions are not shown. Lines headed by an entry give the natural chain unless they say otherwise; changes in a name come on top.
UniProt P93836: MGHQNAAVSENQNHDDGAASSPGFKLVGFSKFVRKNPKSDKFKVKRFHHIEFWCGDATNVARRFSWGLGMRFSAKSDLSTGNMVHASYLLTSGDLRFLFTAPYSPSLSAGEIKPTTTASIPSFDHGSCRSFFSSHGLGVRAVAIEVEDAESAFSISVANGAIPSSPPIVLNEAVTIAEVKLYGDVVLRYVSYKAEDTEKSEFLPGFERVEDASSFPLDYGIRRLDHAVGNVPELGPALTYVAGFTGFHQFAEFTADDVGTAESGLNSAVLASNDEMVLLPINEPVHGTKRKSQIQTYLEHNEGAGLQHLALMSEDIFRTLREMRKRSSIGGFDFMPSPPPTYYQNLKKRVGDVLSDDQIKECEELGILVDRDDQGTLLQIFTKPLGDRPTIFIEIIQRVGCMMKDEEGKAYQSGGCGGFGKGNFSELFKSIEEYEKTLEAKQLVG

Target: 4-hydroxyphenylpyruvate dioxygenase (HPPD) (Arabidopsis thaliana, UniProt P93836)
Settings: Meazza et al., 2002; cited from earlier work

tenuazonic acid copper salt
inhibition to HPPD: slight inhibition
